Structures can show the parent of a compound that is named as a salt.
Columns and labels:
[1] = test system: MCMV strain Smith; assay: Plaque reduction assay for antiviral activity, MCMV in MEF cells; type: cell-based; settings: SI = CC50/EC50
[2] = test system: HCMV strain AD-169; assay: Plaque reduction assay for antiviral activity, HCMV in HFF cells; type: cell-based; settings: SI = CC50/EC50
[3] = test system: Vaccinia Copenhagen; type: cell-based, vaccinia virus (VV)

CCCCCCCCOP(=O)(O)CO[C@H](CO)Cn1ccc(N)nc1=O [O-CDV, Octyl Cidofovir, Sodium Salt] was tested, and the “MCMV SI” value [1] was under 10 and the “HCMV SI” value [2] was over 19.

For CCCCCCCCCCCCCCCCCCCCCCCCOP(=O)(O)CO[C@H](CO)Cn1ccc(N)nc1=O [TC-CDV, Tetracosyl Cidofovir, Sodium Salt], the “MCMV SI” value [1] was over 13 and the “HCMV SI” value [2] was 1670.

With CCCCCCCCCCCCCCCCOP(=O)([O-])COC(CO)Cn1ccc(N)nc1=O.[Na+] (stereo not drawn) [HD-CDV, Hexadecyl Cidofovir, Sodium Salt] the “MCMV SI” value [1] was over 7850, the “HCMV SI” value [2] was over 31400 and the “Vaccinia Copenhagen SI” value [3] was over 51.

CCCCCCCCCCCCCCCCCCCCOP1(=O)CO[C@@H](Cn2ccc(N)nc2=O)CO1 (stereo partly drawn) [EC-cCDV, Eicosyl Cyclic Cidofovir] was tested, and the “MCMV SI” value [1] was 374 and the “HCMV SI” value [2] was 7827.

In the case of CCCCCCCCCCCCCCCCCCCCCCCCOP1(=O)CO[C@@H](Cn2ccc(N)nc2=O)CO1 (stereo partly drawn) [TC-cCDV, Tetracosyl Cyclic Cidofovir], the “MCMV SI” value [1] was over 43 and the “HCMV SI” value [2] was over 313.

With CCCCCCCCCCCCOP(=O)(O)CO[C@H](CO)Cn1ccc(N)nc1=O [DD-CDV, Dodecyl Cidofovir, Sodium Salt] the “MCMV SI” value [1] was under 10 and the “HCMV SI” value [2] was over 322.

With Nc1ccn(C[C@H]2COP(=O)(O)CO2)c(=O)n1 [cCDV, Cyclic Cidofovir, reference compound] the “MCMV SI” value [1] was over 1439 and the “HCMV SI” value [2] was over 107.

For CCCCCCCCCCCCCCCCOP1(=O)COC(Cn2ccc(N)nc2=O)CO1 (mixture of isomers) [HD-cCDV, Hexadecyl Cyclic Cidofovir], the “MCMV SI” value [1] was 6638 and the “HCMV SI” value [2] was 26.8.

In the case of CCCCCCCCCCCCCCCCCCCCOP(=O)(O)CO[C@H](CO)Cn1ccc(N)nc1=O [EC-CDV, Eicosyl Cidofovir, Sodium Salt], the “MCMV SI” value [1] was 7700, the “HCMV SI” value [2] was 5500 and the “Vaccinia Copenhagen SI” value [3] was 28.

CCCCCCCCCCCCCCCCCCCCCCOP(=O)([O-])COC(CO)Cn1ccc(N)nc1=O.[Na+] (stereo not drawn) [DC-CDV, Docosyl Cidofovir, Sodium Salt] was tested, and the “MCMV SI” value [1] was 995 and the “HCMV SI” value [2] was over 26500.

For CCCCCCCCCCCCCCCCCCCCCCOP1(=O)COC(Cn2ccc(N)nc2=O)CO1 (mixture of isomers) [DC-cCDV, Docosyl Cyclic Cidofovir], the “MCMV SI” value [1] was over 36 and the “HCMV SI” value [2] was over 3125.

Nc1ccn(C[C@@H](CO)OCP(=O)(O)O)c(=O)n1 [CDV, Cidofovir, reference compound] was tested, and the “MCMV SI” value [1] was over 7925, the “HCMV SI” value [2] was 264 and the “Vaccinia Copenhagen SI” value [3] was over 10.
